According to patent US7074459B2, “Method for preserving wood” (priority 2003, dated 2006):

How the values were obtained:
[1] = ASTM 1413 soil bottles with no fungus (monitor leaching of chemicals); settings: 1% treatment, unleached, 12 weeks
[2] = Percentage weight gain of wood after chemical treatment; settings: 1% treatment, unleached

N=C(NCCCCCCNC(=N)NC(=N)Nc1ccc(Cl)cc1)NC(=N)Nc1ccc(Cl)cc1.On1ccccc1=S.On1ccccc1=S [Compound 6, chlorhexidinium di(2-mercapto-pyridine N-oxides)]
Wt. Loss % (No Fungus) [1]: 1.14% | WPG (%) Percentage Weight Gain after Chemical Treatment [2]: 4.050%
